{"sequences": {"note": "Protein sequences, listed by entry. Tags and fused reporters are not part of them.", "UniProt P27958, whole entry, looked up": "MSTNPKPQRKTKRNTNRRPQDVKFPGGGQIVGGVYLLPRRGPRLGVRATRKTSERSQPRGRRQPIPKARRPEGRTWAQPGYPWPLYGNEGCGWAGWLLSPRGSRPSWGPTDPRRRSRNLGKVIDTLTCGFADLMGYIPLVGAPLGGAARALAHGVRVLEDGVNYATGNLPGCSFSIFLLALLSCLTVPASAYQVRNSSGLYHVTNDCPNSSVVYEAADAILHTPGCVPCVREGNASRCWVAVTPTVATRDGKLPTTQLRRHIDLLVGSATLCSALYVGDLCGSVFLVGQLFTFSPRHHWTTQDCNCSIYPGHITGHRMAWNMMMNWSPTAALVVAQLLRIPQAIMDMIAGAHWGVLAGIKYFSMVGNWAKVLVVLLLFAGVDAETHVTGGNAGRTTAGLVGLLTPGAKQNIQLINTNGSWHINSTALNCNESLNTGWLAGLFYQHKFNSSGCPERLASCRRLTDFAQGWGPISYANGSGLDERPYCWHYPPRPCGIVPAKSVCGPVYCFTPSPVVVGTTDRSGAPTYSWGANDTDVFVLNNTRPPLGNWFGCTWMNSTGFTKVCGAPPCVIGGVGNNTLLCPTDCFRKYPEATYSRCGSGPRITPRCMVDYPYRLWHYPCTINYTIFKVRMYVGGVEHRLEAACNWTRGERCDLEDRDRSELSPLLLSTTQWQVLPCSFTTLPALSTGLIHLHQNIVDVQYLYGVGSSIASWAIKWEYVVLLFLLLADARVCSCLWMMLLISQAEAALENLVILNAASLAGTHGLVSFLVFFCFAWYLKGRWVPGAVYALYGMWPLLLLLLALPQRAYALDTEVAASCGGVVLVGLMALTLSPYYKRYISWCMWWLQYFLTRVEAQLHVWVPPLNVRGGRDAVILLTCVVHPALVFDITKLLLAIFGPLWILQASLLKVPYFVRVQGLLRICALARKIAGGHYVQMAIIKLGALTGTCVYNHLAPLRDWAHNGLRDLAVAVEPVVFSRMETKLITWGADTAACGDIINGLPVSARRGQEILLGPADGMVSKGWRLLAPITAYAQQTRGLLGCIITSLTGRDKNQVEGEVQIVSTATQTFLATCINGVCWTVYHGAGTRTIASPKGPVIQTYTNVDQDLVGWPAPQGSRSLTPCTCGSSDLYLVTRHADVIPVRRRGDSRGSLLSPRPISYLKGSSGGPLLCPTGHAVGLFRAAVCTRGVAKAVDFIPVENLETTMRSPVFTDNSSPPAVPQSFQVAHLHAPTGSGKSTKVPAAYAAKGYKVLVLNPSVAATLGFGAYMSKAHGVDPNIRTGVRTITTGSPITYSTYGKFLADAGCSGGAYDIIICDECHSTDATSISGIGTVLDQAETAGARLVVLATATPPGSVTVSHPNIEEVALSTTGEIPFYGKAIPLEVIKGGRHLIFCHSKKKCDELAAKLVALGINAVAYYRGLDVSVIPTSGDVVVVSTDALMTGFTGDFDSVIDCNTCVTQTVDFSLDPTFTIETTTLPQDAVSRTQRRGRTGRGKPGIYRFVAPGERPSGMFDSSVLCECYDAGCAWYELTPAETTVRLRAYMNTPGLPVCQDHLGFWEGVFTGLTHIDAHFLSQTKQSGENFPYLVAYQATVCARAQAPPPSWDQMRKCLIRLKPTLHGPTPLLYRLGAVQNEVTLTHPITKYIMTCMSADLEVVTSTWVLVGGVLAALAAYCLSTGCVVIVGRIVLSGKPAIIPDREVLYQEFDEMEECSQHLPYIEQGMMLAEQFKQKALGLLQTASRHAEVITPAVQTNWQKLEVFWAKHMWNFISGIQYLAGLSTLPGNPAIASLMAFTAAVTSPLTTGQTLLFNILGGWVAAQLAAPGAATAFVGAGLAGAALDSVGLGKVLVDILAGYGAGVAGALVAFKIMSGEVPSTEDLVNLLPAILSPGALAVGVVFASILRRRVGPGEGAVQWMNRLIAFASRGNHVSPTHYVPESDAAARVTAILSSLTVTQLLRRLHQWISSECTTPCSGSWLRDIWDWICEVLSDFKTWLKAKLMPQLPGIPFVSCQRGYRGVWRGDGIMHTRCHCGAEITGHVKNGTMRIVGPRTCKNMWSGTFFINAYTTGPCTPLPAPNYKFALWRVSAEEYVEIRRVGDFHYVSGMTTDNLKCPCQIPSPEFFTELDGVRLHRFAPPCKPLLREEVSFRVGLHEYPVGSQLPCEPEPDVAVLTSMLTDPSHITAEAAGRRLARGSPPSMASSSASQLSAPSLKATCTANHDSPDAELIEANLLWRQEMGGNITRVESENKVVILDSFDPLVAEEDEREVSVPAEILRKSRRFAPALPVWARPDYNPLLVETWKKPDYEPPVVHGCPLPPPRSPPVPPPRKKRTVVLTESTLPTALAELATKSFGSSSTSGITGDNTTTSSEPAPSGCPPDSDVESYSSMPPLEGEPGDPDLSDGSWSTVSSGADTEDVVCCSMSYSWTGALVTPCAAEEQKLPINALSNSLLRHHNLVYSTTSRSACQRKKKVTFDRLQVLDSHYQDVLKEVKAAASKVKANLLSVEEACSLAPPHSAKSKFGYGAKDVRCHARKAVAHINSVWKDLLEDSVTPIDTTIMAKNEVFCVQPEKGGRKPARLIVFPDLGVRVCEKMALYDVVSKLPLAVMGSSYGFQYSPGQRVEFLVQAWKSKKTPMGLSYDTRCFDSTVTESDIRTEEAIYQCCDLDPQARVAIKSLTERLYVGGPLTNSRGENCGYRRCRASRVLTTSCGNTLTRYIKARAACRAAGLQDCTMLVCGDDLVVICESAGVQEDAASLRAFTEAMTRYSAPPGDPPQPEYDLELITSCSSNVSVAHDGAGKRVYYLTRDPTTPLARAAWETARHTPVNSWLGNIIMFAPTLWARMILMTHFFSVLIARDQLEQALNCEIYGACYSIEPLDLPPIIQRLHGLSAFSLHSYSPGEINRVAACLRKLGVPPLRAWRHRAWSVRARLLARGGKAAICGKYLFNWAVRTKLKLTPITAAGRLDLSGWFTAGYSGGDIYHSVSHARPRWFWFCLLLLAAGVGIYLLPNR"}, "source": "ChEMBL document CHEMBL3638459", "about": "“2‚Ä=-substituted nucleoside derivatives and methods of use thereof for the treatment of viral diseases” (2015)", "molecular_target": "Genome polyprotein (Hepatitis C virus genotype 1a (isolate H) (HCV), UniProt P27958)"}
{"smiles": "CCOc1nc(N)nc2c1ncn2[C@@H]1O[C@@H]2COP(=O)(C(C)C)OC2[C@@]1(C)F", "note": "(stereo partly specified)", "values": [{"measurement": "Ki", "value": 30, "unit": "nM"}]}
